# Data as given in article PMC8876114, “Cytotoxicity and anti-HIV activities of extracts of the twigs of Croton dichogamus Pax” (BMC Complementary Medicine and Therapies, 2022).
# Test system: HIV-1IIIB laboratory-adapted strain
# Assay: Anti-HIV activity test: prevention of HIV-1 cytopathic effect in MT-4 cells (MTT)
# Format: cell-based, Human immunodeficiency virus type 1
# Conditions: ratio of CC50 to IC50, MT-4 cells
# Procedure: Human immunodeficiency virus type 1 (HIV-1) IIIB (also referred to as HTLV-IIIB) was obtained through the NIH HIV Reagent Program, Division of AIDS, NIAID, NIH: Human Immunodeficiency Virus-1 IIIB, ARP-398, contributed by Dr. Robert Gallo. The effects of the test compounds in preventing the cytopathic effect resulting from HIV-1 replication were evaluated by the MTT colorimetric assay described above.
# The laboratory-adapted strain of human immunodeficiency virus type 1 (HIV-1IIIB) obtained from the National Institutes of Health HIV Reagent Program was used in this experiment. A total of 50 µl of different concentrations ([…]) of the test compounds were seeded into 96-well flat-bottomed microtiter culture plates containing HIV-infected MT-4 cells.
smiles,measurement,value
"C[C@H](Cn1cnc2c(N)ncnc21)OCP(=O)(O)O [TDF, tenofovir]",SI (selectivity index),176.5
